Assay: Induction of muscle contraction in snail buccal mass

Which EC50 does the source give for CC(C)[C@H](NC(=O)[C@H](CCCNC(=N)N)NC(=O)[C@H](CCC(N)=O)NC(=O)[C@H](C)NC(=O)[C@H](CO)NC(=O)CNC(=O)[C@H](CCCCN)NC(=O)[C@@H](NC(=O)[C@H](Cc1ccccc1)NC(=O)[C@H](C)N)C(C)C)C(=O)N[C@@H](C)C(=O)N[C@@H](Cc1cnc[nH]1)C(=O)NCC(=O)N[C@@H](Cc1ccc(O)cc1)C(=O)O here?
The EC50 was 8 nM.

Reference: ChEMBL document CHEMBL4673185 (RSC Med Chem, 2020)
